In this data set the test system is parainfluenza HA-1. As to the kind of experiment: CPE-inhibition (microscopic) assay, Protocol A2. In kind it is cell-based, parainfluenza virus. As to conditions: ratio CC50 / IC50.
Regarding `C[C@@H]1O[C@@H](O[C@H]2[C@H](Oc3cc(O)c4c(c3)O[C@H](c3ccc(O)cc3)CC4=O)O[C@H](CO)[C@@H](O)[C@@H]2O)[C@H](O)[C@H](O)[C@H]1O` [Naringin, 7-neohesperidoside, 5, 4′ dihydroxyflavanone], the TI turned out to be 4.0.

Regarding `O=c1oc2ccccc2cc1-c1ccc(Br)cc1` [3-(4′-Bromophenyl) coumarin, 3-(4′-bromophenyl) coumarin], the TI worked out at 16.

Turning to `COc1cc2oc(-c3ccc(O)c(O)c3)cc(=O)c2c(O)c1OC` [Cirsiliol, 6,7′-dimethoxy-5,3′,4′-trihydroxyflavone], the TI was 1.6.

The values are drawn from patent US6555523B1, “Use of cirsiliol and derivatives to treat infections” (priority 1999, dated 2003).
